Sequences and labels used below:
B1: BD57-0111 (protein)
chain 1: QVQLVESGGGVVQPGRSLRLSCAASGFTFSTFAMHWVRQAPGKGLEWVAVILYDGSYKDYGDSVKGRFTISRDNSKNTLYLQMNSLRADDTAVYYCARDQGKMTTHFDYWGQGTLVTVSS
chain 2: DIQMTQSPSSLSASVGDRVTITCRASQSISGYLNWYQQKPGKAPKLLIYDASSLQSGVPSRFSGSGSGTDFTLTIRSLEPEDFATYYCQQSYATPPWTFGQGTKVEIK
B2: BD57-0134 (protein)
chain 1: EVQMVESGGGLIQPGGSLRLSCAASGFTVSSNYMSWVRQAPGKGLEWVSAIYSGGSTFYADSVKGRFTISRDNSKNTLYLQMNSLRTEDTAVYYCVRDAFFVQYTTSDWGQGTLVTVSS
chain 2: EIVMTQSPATLSVSPGERATLSCRASQSVGNNLAWYQQKPGQAPRLLIYGASTRASGIPARISGSGSGTEFTLTVSSLQSEDFAVYYCQQYIDWPPRYTFGQGTKLEIK
B3: BD57-0119 (protein)
chain 1: QVQLVQSGAELKKPGSSVKVSCKSSGGSFSIYAISWVRQDPGQGLVWMGGIIPITNRPTYAQKFLGRVTITADESTSTAYMELSSLTSDDTGVYYCARDSTLRDWKPGLTWFDPWGQGTLVTVSS
chain 2: DIQMTQSPSSLSASVGDRVTITCRASLNINDFLNWYQQKPGKAPKLLIYAASSLQTGVPSRFSGSGSGTDFTLTISSLQPEDLAIYYCQQSFSPPRTFGQGTKVEIK
B4: BD57-0115 (protein)
chain 1: EVQLAQSGAEVKKPGESLKISCKGSGYSFNTYWIGWVRQMPGKGLEWMGIIYPEDSDTRYSPSFQGQVTISADKSINTAYLQWNSLKASDSAMYYCALIVGASNLGCFDYWGQGTTVTVSS
chain 2: EIVMTQSPATLSVSPGERATLSCRASQSVSDNLAWYQQKPGQAPRLLIYGASSRATGIPGRFSGSGSGTEFTLTISSLQSEDFAVYYCQQYNNWYTFGQGTKLEIK
B5: BD57-0137 (protein)
chain 1: EAQLVESGGGLVQPGRSLRLSCAASGFAFDDYAFHWVRQAPGKGLEWVSSISWDGNTIDYADSVKGRFTISRDNAKNAVYLQLKSLRLEDSALYYCVKDSRAHYDILAGYAGATPWGRGTRVTVSS
chain 2: DIVMTQSPVSLPVIPGEPASISCRSSQSLLHSNGHNYLDWYLQKPGQSPQLLIYMGSNRASGVPDRFSGSGSGTDFTLKISRVEAEDVGIYYCMQGLQTPRTFGQGTKLEIK
B6: BD57-0127 (protein)
chain 1: EVQLVESGGGLVQPGGSLRLSCAASGFTFSSDDMHWVRQSTGKGLEWVSAIGTAGDTYYVDSVKGRFTISREDAKNSLYLQMNSLRAGDTAVYYCARGRAVYDGSRYYYFFDYWGQGTLVTVSS
chain 2: DIQMTQSPSSLSASVGDRVTITCRASQSIARYLNWYQQKPGKAPKLLIYGASSLQSGVPSRFSGSGSGTDFTLTISSLQPEDFATYSCQQSYITTHYTFGQGTKLEIK
B7: BD57-0105 (protein)
chain 1: EVQLVESGGGLVQPGRSLRLSCAASGFTFDDFAMHWVRQAPGKGLEWVSGITWNGDIIAYADSVKGRFTISRDNPRNSLYLQMNGLRPEDTALYYCVKGEKQQLINEPLDYWGQGTLVTVSS
chain 2: SSVLTQPPSVSVAPGKTARITCGGNDIGSKNVHWYQQKPGQAPVLVIYYDNDRPSGIPERFSGSNSGNTATLTISRVEAGDEADYYCQVWDPHVLFGGGTKLTVL

Human monoclonal antibodies against the spike receptor-binding domain (heavy:light variable regions). IC50 against pseudoviruses bearing the spike of naturally observed variants; lower = stronger; >10 µg/ml means not reached at the top dose. No active / inactive call. The stated detection limit is 0.0005 µg/ml; values near or below 0.001 µg/ml lie at the floor of the assay.

For one test, the target named is SARS-CoV-2 Omicron BA.1 spike pseudovirus. Briefly: pseudovirus neutralization IC50; higher = weaker neutralization. The procedure: (§1)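 Single-round VSV luciferase pseudovirus mixed with antibody dilutions for 1 h and put on Huh-7 cells for about a day; IC50 from the dose curve.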
Consider B1, for which the “pseudovirus neutralization IC50” value worked out at 1.86 µg/mL.
With B2, the “pseudovirus neutralization IC50” value was found to be 0.00641 µg/mL.
The same measure, in the same setting: with B3 the figure was 0.354 µg/mL; with B4, 4.64 µg/mL; with B5, more than 10 µg/mL.
Turning to B6, the “pseudovirus neutralization IC50” value was more than 10 µg/mL.
As to B7, the “pseudovirus neutralization IC50” value was found to be 4.68 µg/mL.

In the next test the target is SARS-CoV-2 Omicron BA.2 spike pseudovirus. The test is described as above. The procedure:
as §1
For B1, the “pseudovirus neutralization IC50” value turned out to be 2.76 µg/mL.
In the case of B2, the “pseudovirus neutralization IC50” value stood at 0.00764 µg/mL.
The same measure, in the same setting: with B3 the figure was 0.262 µg/mL.
Take B4: the “pseudovirus neutralization IC50” value was 5.45 µg/mL.
Still for that read-out and setting: as for B5, the figure is more than 10 µg/mL; as for B6, more than 10 µg/mL.
B7: the “pseudovirus neutralization IC50” value was 6.11 µg/mL.

The target in a further test is SARS-CoV-2 Omicron BA.2.75 spike pseudovirus. The test is described as above. As for the experimental part:
as §1
On to B1, for which the “pseudovirus neutralization IC50” value was 2.54 µg/mL.
The same measure, in the same setting: with B2 the figure was 0.00937 µg/mL.
With B3, the “pseudovirus neutralization IC50” value worked out at 0.00183 µg/mL.
In the case of B4, the “pseudovirus neutralization IC50” value stood at 2.17 µg/mL.
On the same count and under the same terms, with B5 the figure was more than 10 µg/mL; with B6, more than 10 µg/mL; with B7, 4.11 µg/mL.

The target in a further test is SARS-CoV-2 Omicron BA.5 spike pseudovirus. The description is as above. As for the experimental part:
as §1
B1: the “pseudovirus neutralization IC50” value was 2.21 µg/mL.
The same measure, in the same setting: with B2 the figure was 0.00422 µg/mL.
Same read-out and setting: as for B3, the figure is 2.23 µg/mL.
As to B4, the “pseudovirus neutralization IC50” value turned out to be 2.94 µg/mL.
The same measure, in the same setting: as for B5, the figure is more than 10 µg/mL; as for B6, more than 10 µg/mL.
Still for that read-out and setting: with B7 the figure was 4.63 µg/mL.

In a further test the target is SARS-CoV-2 Omicron BQ.1.1 spike pseudovirus. Described as above. As for the experimental part:
as §1
B1: the “pseudovirus neutralization IC50” value worked out at 1.38 µg/mL.
Regarding B2, the “pseudovirus neutralization IC50” value stood at 0.0131 µg/mL.
Same read-out and setting: as for B3, the figure is more than 10 µg/mL; as for B4, more than 10 µg/mL.
For B5, the “pseudovirus neutralization IC50” value is more than 10 µg/mL.
For B6, the “pseudovirus neutralization IC50” value is more than 10 µg/mL.
Still for that read-out and setting: as for B7, the figure is more than 10 µg/mL.

For the next test, the target named is SARS-CoV-2 Omicron XBB spike pseudovirus. The test is described as above. As for the experimental part:
as §1
For the molecule B1, the “pseudovirus neutralization IC50” value amounted to 3.32 µg/mL.
On the same count and under the same terms, with B2 the figure was 0.017 µg/mL; with B3, more than 10 µg/mL; with B4, 7.99 µg/mL.
Still for that read-out and setting: with B5 the figure was more than 10 µg/mL.
Take B6: the “pseudovirus neutralization IC50” value was more than 10 µg/mL.
Still for that read-out and setting: with B7 the figure was more than 10 µg/mL.

The target in another test is SARS-CoV-2 early D614G spike pseudovirus. The test is described as above. The procedure: as §1
As to B1, the “pseudovirus neutralization IC50” value was determined as 2.34 µg/mL.
B2: the “pseudovirus neutralization IC50” value is 0.00438 µg/mL.
Still for that read-out and setting: as for B3, the figure is 1.18 µg/mL; as for B4, more than 10 µg/mL.
Same read-out and setting: as for B5, the figure is 0.151 µg/mL; as for B6, more than 10 µg/mL.
Consider B7, for which the “pseudovirus neutralization IC50” value was more than 10 µg/mL.

The record behind these values is the supplement of paper PMC9931576.
